Anti-infective test results gathered from many reports (values: NIAID ChemDB through PubChem).

Common to all: tests on isolated targets; agent: Hepatitis C virus; protein: Nonstructural protein 5B; endpoint: IC50

Neighbouring rows are from separate reports.

SMILES,strain,read by,value
CC(=O)c1ccc(-c2ccc(C=C3SC(=S)N(c4ccc(C(=O)O)cc4)C3=O)o2)cc1,,,≤1 µM
COc1cc(OC)c(CCC2(C3CCCC3)CC(O)=C(SC3=NCCCN3)C(=O)O2)cc1Cl,,,<1 µM
COc1c(-c2ccc3cc(NS(C)(=O)=O)ccc3c2)cc(-n2ccc(=O)[nH]c2=O)cc1C(C)(C)C,GT 2b#1,nucleotide incorporation,>20 µM
O=C(O)CCN1C(=O)C(=Cc2ccc(-c3cc(Cl)cc(Cl)c3)o2)SC1=S,,,≤1 µM
COc1ccccc1CCC1(C2CCCC2)CC(=O)CC(=O)O1,,,10–50 µM
CNC(=O)c1c(-c2ccc(F)cc2)oc2cc(NS(C)(=O)=O)c(-c3cccs3)cc12,,,≤0.5 µM
O=C1CC(=O)OC(CCc2ccccc2CO)(C2CCCC2)C1,,,10–50 µM
CNC(=O)c1c(-c2ccc(F)cc2)oc2cc(-c3c(C)noc3C)c(OCC3CC3)cc12,,,≤0.5 µM
COc1cccc(CCC2(C3CCCC3)CC(O)=CC(=O)O2)c1,,,10–50 µM
CNC(=O)c1c(-c2ccc(F)cc2)oc2cc(-c3c(COC)noc3C3CC3)c(OC)cc12,,,≤0.5 µM
O=C(O)c1ccc(N2C(=O)C(=Cc3ccc(-c4cc5ccccc5o4)o3)SC2=S)cc1,,,≤1 µM
O=C1CC(=O)OC(CCc2ccccc2)(C2CCCC2)C1,,,10–50 µM
CNC(=O)c1c(-c2ccc(F)cc2)oc2cc(N(C)C)c(OC(C)C)cc12,,,≤0.5 µM
O=C(O)CCN1C(=O)C(=Cc2ccc(-c3ccccc3C(F)(F)F)o2)SC1=S,,,≤1 µM
CNC(=O)c1c(-c2ccc(F)cc2)oc2cc(N(Cc3c(C)noc3C)S(C)(=O)=O)c(OC)cc12,,,≤0.5 µM
O=C(O)c1ccc(-n2c(O)c(C=c3ccc(=C4N=C(Cl)C(Cl)=N4)o3)sc2=S)cc1,,,≤1 µM

The first 2 rows once more:

SMILES,strain,read by,value
CC(=O)c1ccc(-c2ccc(C=C3SC(=S)N(c4ccc(C(=O)O)cc4)C3=O)o2)cc1,,,≤1 µM
COc1cc(OC)c(CCC2(C3CCCC3)CC(O)=C(SC3=NCCCN3)C(=O)O2)cc1Cl,,,<1 µM

ICn: concentration for n% inhibition. a–b is a range or a potency band. Blank or dashed fields: not listed here.